Data source: PubChem BioAssay AID624099 (ICCB-Longwood, 2012)

Purpose: 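Human genes that papillomavirus E2 requires to repress the HPV18 LCR promoter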 (primary screen)
Cell system: human C33A cervical carcinoma cells (HPV-negative) stably expressing BPV1 E2 and an HPV18 LCR luciferase reporter
Reagent: siRNA pool against human genes, 40 nM
Timing: 72 h
Measurement: 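Per-well luciferase luminescence, z-scored on each plate against the plate mean and SD with control wells left out, then averaged across three replicate plates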
Direction: mean z-score and z-score: higher = stronger reporter signal, weaker E2 silencing
Call rule: 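Hit if mean z-score reaches 2 and two or more of three replicate z-scores also reach 2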
Shown is an unselected part of about 21,000 reagents. In the full data, 497 (2.4%) got an active call. 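Higher z means weaker E2 silencing; only reporter increases were scored, and knock-downs that hurt cell survival may mask genuine repressor factors.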 Reagents against one gene are numbered here. Reagent sequences are not shown.

| gene symbol | reagent no. | mean z-score | z-score, replicate A | z-score, replicate B | z-score, replicate C | Outcome |
| --- | --- | --- | --- | --- | --- | --- |
| UBE2D3 | 1 | 0.6 | 0.98 | 0.23 | 0.6 | inactive |
| GPIHBP1 | 1 | -1.89 | -1.95 | -1.69 | -2.01 | inactive |
| PGAM5 | 1 | 2.6 | 2.34 | 3.09 | 2.37 | active |
| NPM2 | 1 | 0.38 | 0.53 | 0.55 | 0.04 | inactive |
| CCL8 | 1 | 1.17 | 1.01 | 1.59 | 0.91 | inactive |
| HGSNAT | 1 | 0.68 | 0.64 | 0.67 | 0.71 | inactive |
| TG | 1 | -0.04 | -0.07 | 0.09 | -0.14 | inactive |
| ECT2 | 1 | -0.91 | -0.72 | -1.05 | -0.96 | inactive |
| NAA80 | 1 | -0.29 | -0.22 | 0.04 | -0.69 | inactive |
| PABIR1 | 1 | 0.08 | 0.34 | -0.2 | 0.1 | inactive |
| TM7SF3 | 1 | 1.25 | 1.09 | 1.25 | 1.42 | inactive |
| LINC02774 | 1 | -0.12 | -0.01 | -0.2 | -0.15 | inactive |
| CCNC | 1 | 1.1 | 1.06 | 0.99 | 1.27 | inactive |
| FAM120A | 1 | -0.22 | -0.2 | -0.27 | -0.21 | inactive |
| TSSK4 | 1 | -1.91 | -2.72 | -1.41 | -1.61 | inactive |
| PGM5 | 1 | -0.48 | -0.47 | -0.32 | -0.67 | inactive |
| PF4 | 1 | -0.93 | -1.02 | -0.83 | -0.92 | inactive |
| TTC6 | 1 | -0.37 | -0.34 | -0.65 | -0.13 | inactive |
| TTC6 | 2 | -0.19 | 0.14 | -0.66 | -0.05 | inactive |
| TMEM97 | 1 | 0.81 | 0.82 | 0.88 | 0.72 | inactive |

Hits, of those listed so far:
| gene symbol | reagent no. | mean z-score | z-score, replicate A | z-score, replicate B | z-score, replicate C | Outcome |
| --- | --- | --- | --- | --- | --- | --- |
| PGAM5 | 1 | 2.6 | 2.34 | 3.09 | 2.37 | active |

Additional entries follow.
| gene symbol | reagent no. | mean z-score | z-score, replicate A | z-score, replicate B | z-score, replicate C | Outcome |
| --- | --- | --- | --- | --- | --- | --- |
| FBXO22 | 1 | -0.38 | -0.22 | -0.34 | -0.57 | inactive |
| PDGFC | 1 | -0.63 | -0.89 | -0.43 | -0.58 | inactive |
| LINC01558 | 1 | -1.06 | -0.97 | -1.27 | -0.95 | inactive |
| C7orf25 | 1 | 0.3 | -0.03 | 0.11 | 0.82 | inactive |
| OSTM1 | 1 | -0.27 | -0.21 | -0.19 | -0.41 | inactive |
| LOC402617 (retired record) | 1 | -0.91 | -0.58 | -1.31 | -0.84 | inactive |
| RPLP0 | 1 | -1.81 | -1.86 | -1.72 | -1.85 | inactive |
| CLSTN1 | 1 | 0.91 | 0.94 | 1.06 | 0.73 | inactive |
| LOC390669 (retired record) | 1 | -0.74 | -0.75 | -0.84 | -0.62 | inactive |
| DDX24 | 1 | -0.91 | -1.01 | -0.64 | -1.08 | inactive |
| RFLNB | 1 | -1.01 | -1.06 | -0.86 | -1.12 | inactive |
| MAEA | 1 | -0.29 | -0.46 | -0.38 | -0.02 | inactive |
| FBXO11 | 1 | -0.47 | -0.67 | -0.13 | -0.62 | inactive |
| RPS10P10 | 1 | 1.76 | 1.74 | 1.98 | 1.55 | inactive |
| DLEC1 | 1 | 3.73 | 3.96 | 3.81 | 3.44 | active |
| NDUFAF6 | 1 | -1.37 | -0.71 | -1.6 | -1.8 | inactive |
| PCDHGA7 | 1 | -1.14 | -1.63 | -0.98 | -0.79 | inactive |
| DNMT3L | 1 | 0.29 | 0 | 0.43 | 0.42 | inactive |
| C3orf36 | 1 | -0.86 | -1 | -0.74 | -0.83 | inactive |
